Compound potency records, mixed from different reports. Data source: NIAID ChemDB in PubChem.

Common to all: tests in culture; species: Mycobacterium tuberculosis

Percent inhibition refers to the dose given; in toxicity tests it is the harm to the cells. A number after MIC or MFC names an inhibition level or a share of isolates. MIC bound: limit read from a one-dose screen. An empty or dashed field is not shown. Rows are shuffled and stem from different studies. ECn: concentration that inhibits the pathogen or its effect by n%.

structure	changes	tested at	read-out	method	strain	value
CC1(C)CCc2c(c3ccccc3c3[nH]c(-c4ccccc4)nc23)O1			MIC	resazurin	ATCC 35338	>100 µg/mL
CCCCCCCCCCCCCCC(=O)O/N=C1\c2ccccc2-c2c1c(N1CCN(c3ccccn3)CC1)nc1ccc(Br)cc21			MIC90	resazurin	H37Rv	>6.25 µg/mL
CCCCCCCCCCCCCCCC(=O)OCCc1ccc(OC)cc1			MIC		H37Rv (ATCC 27294)	>128 µg/mL
C[C@@H]1CN(c2c(F)c(N)c3c(=O)c(C(=O)O)cn(C4CC4)c3c2F)C[C@H](C)N1			EC50		TN606 (D94G)	1.1 µg/mL
CC(=O)O[C@@H]1[C@H]2[C@H](C[C@@H](C)C3C=CC(=O)[C@]31C)OC(=O)[C@@H]2C			MIC bound	BACTEC	H37Rv	>12.5 µg/mL
Clc1ccc(N=C2/C(=C/c3ccco3)CNC/C2=C\c2ccco2)c(Cl)c1			MIC	agar / visual reading	H37Rv	3.125 µg/mL
CN1CCCCC(n2nc(Cc3ccc(Cl)cc3)c3ccccc3c2=O)CC1			MIC		H37Rv	32 µg/mL
O=C(O)c1ccccc1O			EC50		7800	>200 µM
CCCC(=O)OC1(C)c2ccccc2-c2c1c(-n1ccnc1)nc1ccc(Br)cc21			MIC90	resazurin	H37Rv	>6.25 µg/mL
CN(C)CCC(c1ccccc1)c1ccccn1			MIC		H37Ra	>256 µg/mL
CCC1CN(c2cc3c(cc2F)c(=O)c(C(=O)O)cn3C2CC2)CCN1			MIC		TN1626 (WILD TYPE)	0.3 µg/mL
CCCCCCCCCCCCCCCCC(=O)OCCc1ccc(OC)cc1			MIC		H37Rv (ATCC 27294)	>128 µg/mL
Cc1cnc2sn(-c3ccc([N+](=O)[O-])cc3)c(=O)c2c1			MIC bound	resazurin	H37Rv	>6.25 µg/mL
CCCCCCCCCCCCCCCCCCCCCCCCCC(=O)OCCc1ccc(OC)cc1			MIC		H37Rv (ATCC 27294)	>128 µg/mL
Brc1ccc(-n2cc(Cn3c4ccccc4c4ccccc43)nn2)cc1			MIC	agar	H37Rv	50 µg/mL
CCCCCCCCCC(=O)O/N=C1\c2ccccc2-c2c1c(N1CCN(c3ccccn3)CC1)nc1ccc(Br)cc21			MIC90	resazurin	H37Rv	>6.25 µg/mL
CN1CCC[C@@H]1CCO[C@](C)(c1ccccc1)c1ccc(Cl)cc1			MIC		H37Rv	16 µg/mL
COC(=O)c1c(C)cc(O)c(C)c1O			MIC		H37Rv (ATCC 27294)	>128 µg/mL
NNC(=O)c1ccncc1	MDR		MIC99	broth dilution	Praha 4	16 µM
CCCCCCCCCCC[C@@H](C[C@@H]1OC(=O)[C@H]1CCCCCC)OC(=O)[C@H](CC(C)C)NC=O			MIC	broth dilution	H37Rv	50 µg/mL
Cc1ccc(C)c(-n2cc(Cn3c4ccccc4c4ccccc43)nn2)c1			MIC	agar	H37Rv	50 µg/mL
NCC[C@H](O)C(=O)N[C@@H]1C[C@H](N)[C@@H](O[C@H]2O[C@H](CN)[C@@H](O)[C@H](O)[C@H]2O)[C@H](O)[C@H]1O[C@H]1O[C@H](CO)[C@@H](O)[C@H](N)[C@H]1O	MDR		MIC99	broth dilution	Praha 1	0.5 µM
CC1(C)CCc2c(c3ccccc3c3[nH]c(-c4c[nH]c5ccccc45)nc23)O1			MIC	resazurin	H37Rv	1.56 µg/mL
COc1c2ccoc2nc2c3c(ccc12)OCO3			MIC		H37Rv	33 µg/mL
CC1=C(C(=O)Nc2ccc(F)cc2)C(c2cccc(Cl)c2)C(C(=O)Nc2ccc(F)cc2)=C(C)N1			MIC		H37Rv	>6.25 µg/mL
CCCCCCCCCCCCCCCCCCCCCCCC(=O)OCCc1ccc(OC)cc1			MIC		H37Rv (ATCC 27294)	>128 µg/mL
Brc1ccc(-c2ccc3nnnn3n2)s1		12.5 µg/mL	inhibition	BACTEC	H37Rv	0%
CC1=C(C(=O)Nc2cccc([N+](=O)[O-])c2)C(c2ccccc2O)C(C(=O)Nc2cccc([N+](=O)[O-])c2)=C(C)N1			MIC		H37Rv	<12.5 µg/mL
c1ccc(-n2cc(Cn3c4ccccc4c4ccccc43)nn2)cc1			MIC	agar	H37Rv	50 µg/mL
CC1=C(C(=O)Nc2ccc(F)c(Cl)c2)C(c2ccc(O)cc2)C(C(=O)Nc2ccc(F)c(Cl)c2)=C(C)N1			MIC		H37Rv	>6.25 µg/mL
CCC(=O)OC1(C)c2ccccc2-c2c1c(-n1ccnc1)nc1ccc(Br)cc21			MIC90	resazurin	H37Rv	>6.25 µg/mL
CC1(C)CCC2=C(O1)c1ccccc1C(=O)C2=O			MIC	resazurin	ATCC 35338	1.56 µg/mL
O=C1C2=C(OCO2)C(=O)c2cc(O)ccc21			MIC bound	BACTEC	H37Rv	>12.5 µg/mL
C=CCSc1nnc(-n2c(-c3ccccc3)nc3ccccc3c2=O)s1			MIC		H37Rv	>20 µg/mL
N#CC(Nc1ccc(Cl)cc1)c1ccc(OCc2nc3ccccc3[nH]2)cc1			MIC	resazurin	H37Rv	4.68 µg/mL
O=c1oc2nc(-c3ccccc3)[nH]c(=O)c2c2c1CCCC2		12.5 µg/mL	inhibition	BACTEC	H37Rv	3%
CSCCC(NC(=O)OC(C)(C)C)C(=O)O/N=C1\c2ccccc2-c2c1c(N1CCN(c3ccccn3)CC1)nc1ccc(Br)cc21			MIC90	resazurin	H37Rv	>6.25 µg/mL
Cc1[nH]c2ccccc2c1CC(CC(=O)NN)C(=O)NN			MIC bound	resazurin	H37Rv	>6.25 µg/mL
CO[C@H]1/C=C/O[C@@]2(C)Oc3c(C)c(O)c4c(O)c(c(/C=N/N5CCN(C)CC5)c(O)c4c3C2=O)NC(=O)/C(C)=C\C=C\[C@H](C)[C@H](O)[C@@H](C)[C@@H](O)[C@@H](C)[C@H](OC(C)=O)[C@@H]1C			MIC	resazurin	H37Rv	2 µg/mL
Cc1[o+]c(C)c2c(c1C)-c1ccccc1C2=O.[O-][Cl+3]([O-])([O-])[O-]		12.5 µg/mL	inhibition	BACTEC	H37Rv	-21%
CO[C@H]1/C=C/O[C@@]2(C)Oc3c(C)c(O)c4c(O)c(c(/C=N/N5CCN(C)CC5)c(O)c4c3C2=O)NC(=O)/C(C)=C\C=C\[C@H](C)[C@H](O)[C@@H](C)[C@@H](O)[C@@H](C)[C@H](OC(C)=O)[C@@H]1C	MDR		MIC99	broth dilution	Praha 4	>8 µM
Cn1nnc2ccccc2c1=O		12.5 µg/mL	inhibition	BACTEC	H37Rv	0%
N#CC(Nc1ccc(F)cc1F)c1ccc(OCc2nc3ccccc3[nH]2)cc1			MIC	resazurin	H37Rv	0.05 µg/mL
CNC(=O)CNC(=O)[C@@H](NC(=O)CNC(=O)[C@@H]1CCCN1C(=O)[C@H](C)NC(=O)[C@@H](NC(C)=O)C(C)C)C(C)C			MIC bound	BACTEC	H37Rv	>12.5 µg/mL
N#CC(Nc1cccc(F)c1)c1ccc(OCc2nc3ccccc3[nH]2)cc1			MIC	resazurin	H37Rv	3.12 µg/mL
Clc1cccc(Cn2cc(Cn3c4ccccc4c4ccccc43)nn2)c1			MIC	agar	H37Rv	50 µg/mL
CC[C@@H](CO)NCCN[C@@H](CC)CO	MDR		MIC99	broth dilution	234/2005	16 µM
COc1cc(C2C(C(=O)Nc3ccccc3F)=C(C)NC(C)=C2C(=O)Nc2ccccc2F)cc(OC)c1OC			MIC		H37Rv	>6.25 µg/mL
CCCCC(=O)O/N=C1\c2ccccc2-c2c1c(N1CCN(c3ccccn3)CC1)nc1ccc(Br)cc21			MIC90	resazurin	H37Rv	>6.25 µg/mL
O=C1OC2(CC1n1cnc3ccccc3c1=O)C(=O)Nc1ccccc12		12.5 µg/mL	inhibition	BACTEC	H37Rv	28%
CN(C)CCOC(c1ccc(Cl)cc1)c1ccccn1			MIC		H37Ra	128 µg/mL
CCCCCCCCCCCCCCCCCCC(=O)OCCc1ccc(O)cc1			MIC		H37Rv (ATCC 27294)	>128 µg/mL
O=c1c2cc(Br)ccc2nc(-c2ccccc2)n1-c1n[nH]c(=S)s1			MIC		H37Rv	20 µg/mL
CN[C@@H]1[C@@H](O)[C@@H](O[C@@H]2[C@@H](O)[C@H](O[C@H]3O[C@H](CN)CC[C@H]3N)[C@@H](N)C[C@H]2N)OC[C@]1(C)O	MDR		MIC99	broth dilution	8666/2010	1 µM
O=C(O)CSc1nnc(-n2c(-c3ccccc3)nc3ccccc3c2=O)s1			MIC		H37Rv	40 µg/mL
CC(=O)N[C@H]1[C@@H](O[C@@H]2O[C@H](C[C@@H](O)[C@H]3O[C@@H](n4ccc(=O)[nH]c4=O)[C@H](O)[C@@H]3O)[C@H](O)[C@H](O)[C@H]2NC(=O)/C=C/CC(C)C)O[C@H](CO)[C@@H](O)[C@@H]1O			MIC		INH-r	1.6 µg/mL
CO[C@H]1/C=C/O[C@@]2(C)Oc3c(C)c(O)c4c(O)c(c(/C=N/N=C/N5CCCCC5)c(O)c4c3C2=O)NC(=O)/C(C)=C\C=C\[C@H](C)[C@H](O)[C@@H](C)[C@@H](O)[C@@H](C)[C@H](OC(C)=O)[C@@H]1C			MIC		10 strains (RIF-resistant)	25 µg/mL
CN[C@@H]1[C@H](O[C@H]2[C@H](O[C@H]3[C@H](O)[C@@H](O)[C@H](N=C(N)N)[C@@H](O)[C@@H]3N=C(N)N)O[C@@H](C)[C@]2(O)C=O)O[C@@H](CO)[C@H](O)[C@H]1O	MDR		MIC99	broth dilution	9449/2007	>32 µM
C=C1C(=O)O[C@@H]2C[C@@]3(C)C=CC(=O)C(=C)[C@@H]3C[C@H]12			MIC		H37Rv	>12.5 µg/mL
C=CCSc1nnc(-n2c(-c3ccccc3)nc3ccc(I)cc3c2=O)s1			MIC		H37Rv	>40 µg/mL
Nc1ccc2c(c1)oc1ccccc12		12.5 µg/mL	inhibition	BACTEC	H37Rv	53%
ONC(=S)NN=C1/C(=C/c2ccco2)CNC/C1=C\c1ccco1			MIC	agar / visual reading	H37Rv	3.125 µg/mL
O=C(O)c1ccc(N2N=C3C(=CC(=O)c4ccccc43)SCC2=O)cc1			MIC	resazurin	H37Rv	12.5 µg/mL
CN1CCC(OC(c2ccccc2)c2ccccc2)CC1			MIC		H37Ra	64 µg/mL
C[C@H]1[C@H](C)CC[C@]2(C(=O)O)CC[C@]3(C)C(CC[C@@H]4[C@@]5(C)C[C@H](O)CC(C)(C)[C@@H]5CC[C@]43C)[C@H]12			MIC	resazurin	MTY147	25 µg/mL
C(=C1/CNC/C(=C\c2ccco2)C1=Nc1ccccc1)/c1ccco1			MIC	agar / visual reading	H37Rv	6.25 µg/mL
CSC(=S)N/N=C(/C)c1ccco1		128 µg/mL	inhibition	BACTEC	H37Rv	100%
N#CC(Nc1cc(F)ccc1F)c1ccc(OCc2nc3ccccc3[nH]2)cc1		6.25 µg/mL	inhibition	resazurin	H37Rv	98%
Cn1c(C(=O)NN)cc2cc(OCc3ccccc3)ccc21		12.5 µg/mL	inhibition	BACTEC	H37Rv	-6%
CN(C)CCOc1ccccc1Cc1ccccc1			MIC		H37Ra	16 µg/mL
Cn1nc(-c2ccccc2NC(=O)C(F)(F)F)c(=O)n(C)c1=S		12.5 µg/mL	inhibition	BACTEC	H37Rv	33%
CC(C)(C)c1ccc(Cn2cnc([N+](=O)[O-])n2)cc1		62 µM	inhibition	turbidity	DprE1-overexpressing	90%
O=C1NC2C=C(Cl)C(Cl)=CC2c2ccc(Cl)cc21			MIC bound	resazurin	H37Rv	>6.25 µg/mL
N#CC(Nc1ccccc1F)c1ccc(OCc2nc3ccccc3[nH]2)cc1		6.25 µg/mL	inhibition	resazurin	H37Rv	92%
O=C(Nc1ccc(NC(=O)Nc2cc(C(=O)Nc3ccc(C4=NCCN4)cc3)ccc2C(=O)Nc2ccc(C3=NCCN3)cc2)cc1)Nc1cc(C(=O)Nc2ccc(C3=NCCN3)cc2)ccc1C(=O)Nc1ccc(C2=NCCN2)cc1		12.5 µg/mL	inhibition	BACTEC	H37Rv	12%
CCSN(SCC)C(=S)c1ncnc(N(C)O)c1[N+](=O)[O-]			MBC			10.42 µg/mL
O=C1CC2C1C1C=CC2n2c(=O)n(-c3ccccc3)c(=O)n21			MIC bound	resazurin	H37Rv	>6.25 µg/mL
ON=C1/C(=C/c2ccco2)CNC/C1=C\c1ccco1			MIC	agar / visual reading	H37Rv	6.25 µg/mL

For reference, 6 entries again:

structure	changes	tested at	read-out	method	strain	value
C(=C1/CNC/C(=C\c2ccco2)C1=Nc1ccccc1)/c1ccco1			MIC	agar / visual reading	H37Rv	6.25 µg/mL
Cc1cnc2sn(-c3ccc([N+](=O)[O-])cc3)c(=O)c2c1			MIC bound	resazurin	H37Rv	>6.25 µg/mL
Brc1ccc(-c2ccc3nnnn3n2)s1		12.5 µg/mL	inhibition	BACTEC	H37Rv	0%
Cn1nnc2ccccc2c1=O		12.5 µg/mL	inhibition	BACTEC	H37Rv	0%
CCC(=O)OC1(C)c2ccccc2-c2c1c(-n1ccnc1)nc1ccc(Br)cc21			MIC90	resazurin	H37Rv	>6.25 µg/mL
CSC(=S)N/N=C(/C)c1ccco1		128 µg/mL	inhibition	BACTEC	H37Rv	100%